In US20220228161A1 (published 2022):

Target: gp41 peptide […]
Assay: SPR

Substance	Kd
2F5 cleaved	0.163 µM
2F5 intact	0.006 µM
